Reference: paper PMC6191537
For at least one entry, the source does not settle the construct or the ends of the probe.

Tests used:
CsoR wild type = assay: EMSA; details: anaerobic, 20 mM HEPES pH 7.0, 100 mM NaCl, 100 ng/ul poly(dI-dC), 1 mM DTT, 0.4 mg/ml BSA, room temperature, 30 min, 0.1 uM each DNA, 0-100 uM CsoR, 6% native PAGE, recombinant protein, residues 1-97, probe letters rebuilt from the primers and the genome, part of a longer molecule
CsoR CHC C41A,H66A,C70A = assay: EMSA; details: anaerobic, 20 mM HEPES pH 7.0, 100 mM NaCl, 100 ng/ul poly(dI-dC), 1 mM DTT, 0.4 mg/ml BSA, room temperature, 30 min, 0.1 uM each DNA, 0-100 uM CsoR, 6% native PAGE, recombinant protein, residues 1-97, probe letters rebuilt from the primers and the genome, part of a longer molecule

Row | Sequence | binding result (CsoR wild type; apo-CsoR) | binding result (CsoR CHC C41A,H66A,C70A; 1 mol equivalent Cu(I)) | binding result (CsoR CHC C41A,H66A,C70A; no Cu(I)) | binding result (CsoR wild type; no Cu(I) stated)
1 | CCACATTATTGCCTCCCTGTGATTCATTGTTACACGTCTAATGTACCCCCTATAGGTATATAAGTCAATCGTTGCGTTTTACTTTTACCAATTTTAAAAAGAAAAAGAGAGATTGCCGTGCAAACATTGCACAACAATCTCTCTATTTAGCATCTATATAAAAGAAGTCGTAATTAATATTAAAGGATGTATGAATGAAAGGTAAAACTTAAATGACTTCTGGATTTGTAATTCTTAGGTGACTTAAAAGAAAT (double strand) [PcopA] | binds | binds | binds | –
2 | CATATACGGGATAGGGGTATATACCATTTGACTTTTTTATTTTGTAGTGTACAGAAAATAACCATTTTCTGTACACTCTTTTTTTATATCGAAATAAGTGAGGATTACATTTATTTTTATGTTCAGAAACCCAATAAAAAATCTATGTTCATAAAAGTACCCGTATTTAAGTTATGGTACACTAATGATGGATATAGGAGGTTTGTATTTTGAAAATAGGTTATGCAAGAGTTTCAACAGGATTACAA (double strand) [PcopB] | – | – | – | binds
